Measured values from several laboratories, pooled; numbers as filed in NIAID ChemDB.

Shared fields: tests in culture; agent: HIV-1; cells: MT-2; endpoint: fold resistance

Fold resistance: result on the changed form divided by that on wild type. Conditions beyond the fields shown may differ between rows. Blank or dashed fields: not listed here.

| SMILES | strain | changes | method | conditions | value |
|---|---|---|---|---|---|
| COc1c(O)c(Cl)c2c(c1OC)-c1c(c(Cl)c(O)c(OC)c1OC)C[C@H](C)[C@H](C)C2 | N119 nevirapine-resistant (RT Y181C) | RT-Y181C | cytopathic effect / MTT |  | >14.1 |
| Nc1ccn([C@H]2CC[C@@H](CO)O2)c(=O)n1 | HXB2-MT 65+68 (RT K65R S68G) | RT-K65R S68G | p24 / ELISA |  | 6.28 |
| Cc1cn([C@H]2C[C@H](N=[N+]=[N-])[C@@H](CO)O2)c(=O)[nH]c1=O | Site-directed mutant | RT-K65R H221Y | cytopathic effect / XTT |  | 1.3 |
| CC(C)C[C@@H]1[C@H](O)[C@@H](O)[C@@H](CC(C)C)N(Cc2cccc(C(=O)Nc3nc4ccccc4[nH]3)c2)C(=O)N1Cc1cccc(C(=O)Nc2nc3ccccc3[nH]2)c1 | RF | PR-I84V V82F |  | 3 d | 0.203 |
| CCOP(=O)(COc1ccc(C[C@H](NC(=O)O[C@H]2CO[C@H]3OCC[C@H]32)[C@H](O)CN(CC(C)C)S(=O)(=O)c2ccc(OC)cc2)cc1)OCC | IIIB | 8374-P36 GS-8374-resistant | ATP |  | 3.5 |
| O=c1[nH]cnc2c1ncn2[C@H]1CC[C@@H](CO)O1 | HXB2D (RT D67N K70R T215Y) | RT-D67N K70R T215Y |  |  | 1.45 |
| Cc1cn([C@H]2C=C[C@@H](CO)O2)c(=O)[nH]c1=O | RT-T69G K103N | 1(T69G+K103N) | p24 |  | 10 |
| Nc1ncnc2c1ncn2CCOCP(=O)(O)O | RT P119S L214F | RT-P119S L214F | p24 |  | 1.3 |
| CC(C)=CCOc1cc(NC(=S)c2ccoc2C)ccc1Cl | UC781-resistant (RT K103N Y181C) A17 | RT-K103N Y181C | p24 |  | >1040 |
| Cc1cn([C@H]2C[C@H](N=[N+]=[N-])[C@@H](CO)O2)c(=O)[nH]c1=O | NL4-3 | RT-V75T | p24 |  | 1 |
| Cc1cn([C@H]2C=C[C@@H](CO)O2)c(=O)[nH]c1=O | HXB2D (RT D67N K70R T215Y) | RT-D67N K70R T215Y |  |  | 1.475 |
| Cc1cn([C@H]2C[C@H](N=[N+]=[N-])[C@@H](CO)O2)c(=O)[nH]c1=O | AZT-resistant (RT D67N K70R T215F K219Q) | RT-D67N K70N T215F K219Q | p24 |  | 11.7 |
| Cn1c2ccccc2c2c1cc(C#N)c(=O)n2-c1ccc([N+](=O)[O-])cc1 | HXB2 | Remodeled TAMs (K70G V75T L228R K219R) |  |  | 0.2 |
| Nc1cccc(CN2C(=O)N(Cc3ccc4[nH]nc(-c5ccsc5)c4c3)[C@H](Cc3ccccc3)[C@H](O)[C@@H](O)[C@H]2Cc2ccccc2)c1 | Ritonavir-resistant (PR M46I L63P A71V V82F I84V) | PR-M46I L63P A71V V82F I84V |  |  | >156 |
| C[C@H](Cn1cnc2c(N)ncnc21)OCP(=O)(O)O | N119 (NNRTI-resistant RT Y181C) | RT-Y181C | p24 |  | 0.118 |
| CC(C)(C)NC(=O)[C@@H]1C[C@@H]2CCCC[C@@H]2CN1C[C@@H](O)[C@H](Cc1ccccc1)NC(=O)[C@H](CC(N)=O)NC(=O)c1ccc2ccccc2n1 | RF | PR-G48V A71T V82A |  |  | 8.95 |
| Nc1ccn([C@H]2CC[C@@H](CO)O2)c(=O)n1 | RT P119S L214F | RT-P119S L214F | p24 |  | 2.4 |
| Cc1cn([C@H]2C[C@H](N=[N+]=[N-])[C@@H](CO)O2)c(=O)[nH]c1=O | HXB2-MT 65+68 (RT K65R S68G) | RT-K65R S68G | p24 / ELISA |  | 1.67 |
| Cc1cn([C@H]2C[C@H](N=[N+]=[N-])[C@@H](CO)O2)c(=O)[nH]c1=O | LAI | RT-D67N K70R T215Y K219Q | p24 |  | 47.7 |
| Nc1nc(=O)n([C@@H]2CS[C@H](CO)O2)cc1F | Site-directed mutant | RT-K65R Y115F | cytopathic effect / XTT |  | 25.5 |
| CC(C)=CCN1Cc2cccc3[nH]c(=S)n(c23)C[C@@H]1C | PD165BC(RT-L92I) | RT-L92I | RT activity |  | 0.304 |
| Cc1cn([C@H]2C[C@H](N=[N+]=[N-])[C@@H](CO)O2)c(=O)[nH]c1=O | A17 | RT-K103N Y181C | RT activity |  | 0.5 |
| Cc1cn([C@H]2C[C@H](N=[N+]=[N-])[C@@H](CO)O2)c(=O)[nH]c1=O | NL4-3 | INTG-G140S |  |  | 1.5 |
| CC(C)=CCN1Cc2cccc3[nH]c(=S)n(c23)C[C@@H]1C | N119 nevirapine-resistant (RT Y181C) | RT-Y181C | cytopathic effect / MTT |  | 385 |
| Nc1cccc(CN2C(=O)N(Cc3cccc(N)c3)[C@H](Cc3ccccc3)[C@H](O)[C@@H](O)[C@H]2Cc2ccccc2)c1 | E (PR M46L V82V/I I84V/I) | PR-M46L V82V+I I84V+I | virus yield |  | 10 |
| COC(=O)N[C@H](C(=O)N[C@@H](Cc1ccccc1)[C@@H](O)CN(Cc1ccc(-c2ccccn2)cc1)NC(=O)[C@@H](NC(=O)OC)C(C)(C)C)C(C)(C)C | NL4-3 | PR-L10I G48V L90M |  |  | 1.27 |
| Cc1ccnc2c1NC(=O)c1cccnc1N2C1CC1 | N119 RT-Y181C NNRTI-resistant | RT-Y181C | cytopathic effect |  | >570 |
| Nc1nc(N)c2ncn([C@H]3CO[C@@H](CO)O3)c2n1 |  | RT-L74V | cytopathic effect / XTT |  | 4 |
| Cc1cn([C@H]2C[C@H](N=[N+]=[N-])[C@@H](CO)O2)c(=O)[nH]c1=O | K65R(RT-K65R) | RT-K65R | p24 |  | 1 |
| Cc1c(O)cccc1C(=O)N[C@@H](CSc1ccccc1)[C@H](O)CN1C[C@H]2CCCC[C@H]2C[C@H]1C(=O)NC(C)(C)C | NL4-3 | INTG-G140S |  |  | 2 |
| Nc1ccn([C@@H]2CO[C@H](CO)S2)c(=O)n1 | HXB2D (RT-K65R) | RT-K65R | RT activity |  | 18.33 |
| CC(C)(C)OC(=O)N[C@@H](Cc1ccccc1)[C@H](O)CNC[C@@H](O)[C@H](Cc1ccc(OCC(=O)N2CCOCC2)cc1)NC(=O)OC(C)(C)C | NL4-3 | PR-A71T | p24 |  | 1.25 |
| Nc1nc(NC2CC2)c2ncn([C@H]3C=C[C@@H](CO)C3)c2n1 |  | RT-Q151M A62V | cytopathic effect / MTT |  | 2.8 |
| Nc1ncnc2c1ncn2[C@@H]1O[C@H](CO)C[C@@H]1F | K65R(RT-K65R) | RT-K65R | p24 |  | 2.3 |
| Nc1nc2c(ncn2[C@H]2CO[C@@H](CO)O2)c(=O)[nH]1 |  | RT-M41L K70R T215Y K219Q |  |  | 1.22 |
| O=c1[nH]cnc2c1ncn2[C@H]1CC[C@@H](CO)O1 |  | RT-delta67 K103N | p24 |  | 3.5 |
| Nc1nc(=O)n([C@H]2CS[C@@H](CO)O2)cc1F | HXB2 | Y143C | recombinant virus assay / single cycle | pseudotyped | 1.1 |
| Cc1cn([C@H]2C=C[C@@H](CO)O2)c(=O)[nH]c1=O |  | RT-Q151M | cytopathic effect / MTT |  | 4.6 |
| Nc1nc2c(ncn2[C@H]2CO[C@@H](CO)O2)c(=O)[nH]1 |  | RT-F116Y Q151M T215Y | cytopathic effect / XTT |  | 10 |
| CC(C)=CCN1Cc2cccc3[nH]c(=S)n(c23)C[C@@H]1C | IIIB | RT-R83K L100I | cytopathic effect |  | >187.5 |
| CO[C@H]1O[C@@H](n2ccc(=O)[nH]c2=O)C[C@@H]1N=[N+]=[N-] | HX(RT-S156A) | RT-S156A | RT activity |  | 0.0275 |